PubChem BioAssay AID504761, Drosophila RNAi Screening Center, 2011

Test: 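Insect host genes that dengue virus relies on to spread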 (primary screen)
System: D.Mel-2 cells from Drosophila
Reagents: long dsRNA against Drosophila genes
Treatment: infection with dengue virus type 2; dose and infection time not stated
Measured: 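Per well on two replicate plates, imaging gave the percent of cells positive for viral envelope protein, ranked by infection, and a nuclear count of cells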
Scale: infection score: higher = more virus-infected cells; cell count: higher = more cells in the well
Call rule: 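Very low infection ranking in both replicate wells (chance probability at most 0.065), then a retest showing infection dropped 1.5-fold or more at p below 0.05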
Meaning of the calls: active = confirmed: knock-down lowers infection; inactive = not picked or not confirmed
In all, the deposit lists about 22,000 reagents; shown is a random part of those with a known target gene and a result. Of all reagents, 116 (0.52%) are marked active. 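Calls depend on retest data that are not deposited; infection was ranked per plate without normalising between plates; the unit of the infection score is not given.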 Raw values are not corrected between plates. Unmarked entries are inactive. A plus sign joins genes that one reagent is predicted to hit. Further read-outs or replicates are left out here. The record does not give: the amount of reagent, the time to read-out.

target	DRSC id	infection score, replicate 1	infection score, replicate 2	cell count, replicate 1
CG5087 (GeneID 39035)	DRSC10479	5.95	6.7	5609
Cht12 (GeneID 246535)	DRSC03844	1.31	2.03	6011
CG32820 + CG17450 + CG32819	DRSC21803	39.2	3.73	4705
CG32820 + CG17450 + CG32819	DRSC22812	0.35	13.9	6012
CG32820 + CG17450 + CG32819	DRSC27791	3.24	7.66	6998
CG17195 (GeneID 43113)	DRSC15188	1.95	9.23	6312
CG17195 (GeneID 43113)	DRSC26415	3.21	5.5	6361
CG12112 (GeneID 31794)	DRSC17809	14	1.14	5836
skd (GeneID 43906)	DRSC11898	3.19	3.5	5830
AGO1 (GeneID 36544)	DRSC05912	28.3	11.6	3767
TrissinR (GeneID 33812)	DRSC02334	2.12	3.41	6503
TrissinR (GeneID 33812)	DRSC02335	1.58	3.09	6348
TrissinR (GeneID 33812)	DRSC02336	1.06	0.73	6343
TrissinR (GeneID 33812)	DRSC25084	1.7	3.24	6586
TrissinR (GeneID 33812)	DRSC26283	10.8	7.35	5655
CG9799 (GeneID 41647)	DRSC16567	13.2	20.6	5730
Zasp66 (GeneID 38988)	DRSC08932	1.92	0.37	6151
Zasp66 (GeneID 38988)	DRSC10631	13.5	15.7	3802
Zasp66 (GeneID 38988)	DRSC10632	7.75	2.67	5481
Ccn (GeneID 39972)	DRSC09504	4.52	5.1	5576
Ccn (GeneID 39972)	DRSC09506	0.35	2.11	5764
Ccn (GeneID 39972)	DRSC10062	14.9	13.1	5590
Ccn (GeneID 39972)	DRSC10063	10.2	3.84	6462
Cdc2rk (GeneID 36051)	DRSC07590	21.9	12.8	5730
Cdc2rk (GeneID 36051)	DRSC29758	5.36	3.71	6009
Ssl2 (GeneID 43424)	DRSC14395	8.73	1.08	5478
Ssl2 (GeneID 43424)	DRSC22796	1.76	11	5641
CG31178 (GeneID 42575)	DRSC14590	10.1	6.11	3027
eIF5B (GeneID 44261)	DRSC08429	2.31	5	6284
eIF5B (GeneID 44261)	DRSC08710	0.69	4.52	6623
eIF5B (GeneID 44261)	DRSC25022	7.41	0.86	5882
JMJD7 (GeneID 39514)	DRSC09703	9.71	2.58	6847
CG6138 (GeneID 34454)	DRSC02933	5.36	2.21	6209
Lcp1Psi (GeneID 3772468)	DRSC05105	0.65	0.16	6186
Lcp1Psi (GeneID 3772468)	DRSC28465	21	15.1	5105
CG6664 (GeneID 39903)	DRSC10690	4.27	10.7	6393
CG6664 (GeneID 39903)	DRSC25430	2.8	2.19	6290
CG12384 (GeneID 36224)	DRSC06145	5.21	3.74	5945
CG12384 (GeneID 36224)	DRSC28713	10.8	20.4	5566
CG7991 (GeneID 38214)	DRSC08609	4.08	0.71	6224
CG7991 (GeneID 38214)	DRSC29595		3.61	357
Lon (GeneID 40138)	DRSC11049	12.5	9.26	5626
Lon (GeneID 40138)	DRSC26015	4.58	7.02	5720
RhoGAP54D (GeneID 36996)	DRSC06990	13.9	7.18	6513
RhoGAP54D (GeneID 36996)	DRSC26684	4.63	3.19	6374
CG11368 (GeneID 50397)	DRSC17778	11.8	4.57	5439
E(spl)m2-BFM (GeneID 43155)	DRSC23082	3.17	2.48	6471
Droj2 (GeneID 41646)	DRSC16450	7.4	29.4	4082
Droj2 (GeneID 41646)	DRSC28863	9.3		979
CG17350 (GeneID 35210)	DRSC02611	4.97	0.63	2553
ItgaPS4 (GeneID 36693)	DRSC06630	8.63	12.3	6219
flfl (GeneID 41675)	DRSC16474	6.8	6.45	5104
yki (GeneID 37851)	DRSC04437	31.9	25.2	6241
yki (GeneID 37851)	DRSC28304	20.3	15.2	3692
ind (GeneID 2768974)	DRSC23095	0.56 (active)	0.76	6262
CG7488 (GeneID 41597)	DRSC16250	7.03	8.04	5875
rtv (GeneID 32056)	DRSC19541	1.34	1.35	6260
Nup43 (GeneID 42209)	DRSC16279	6.35	3.23	1828
Prosbeta1 (GeneID 46058)	DRSC07159		0.09	21
CG9757 (GeneID 41662)	DRSC16557	2.71	14.8	5871
CG9757 (GeneID 41662)	DRSC21707	1.92	3.5	6363
CG9757 (GeneID 41662)	DRSC25621	11.4	18.7	6860
CG15547 (GeneID 43661)	DRSC15085	2.54	0.73	6060
CG15547 (GeneID 43661)	DRSC29577	13.5	15.9	2434
FarO (GeneID 45707)	DRSC18475	20.8	0.71	3307
CG10283 (GeneID 35102)	DRSC02034	4.33	7.68	6629
CG10283 (GeneID 35102)	DRSC25302	4.58	5.39	6391
CG42286 (retired record) (GeneID 41002)	DRSC24974	14.5	8.43	5709
CG31827 + CG18478	DRSC01958	11.5	2.25	6336
hop (GeneID 32080)	DRSC20340	1.35	0.54	6352
hop (GeneID 32080)	DRSC23334	3.15	5.85	6165
hop (GeneID 32080)	DRSC26551	3.21	7.23	6109
grim (GeneID 40014)	DRSC23169	0.38	45.6	5306
Idgf1 (GeneID 34978)	DRSC03349	16.7	11.7	6255
Idgf1 (GeneID 34978)	DRSC26045	5.23	4.25	6114

Entries listed above with an active call (1):
target	DRSC id	infection score, replicate 1	infection score, replicate 2	cell count, replicate 1
ind (GeneID 2768974)	DRSC23095	0.56 (active)	0.76	6262
